In patent publication US5583115A, “Dialkyltiacumicin compounds” (Abbott Laboratories, priority 1995, dated 1996):

Assays:
Streptococcus agalactiae = test: MIC agar dilution, aerobic and facultative bacteria; settings: Table 1
Enterococcus faecium = test: as above; settings: Table 1

CCc1c(Cl)c(OC)c(Cl)c(OC)c1C(=O)OC1C(C)OC(OCC2=CC=CCC(O)C(C)=CC(CC)C(OC3OC(C)(C)C(OC(=O)C(C)C)C(O)C3O)C(C)=CC(C)=CCC(C(C)O)OC2=O)C(OC)C1O (centres unmarked) [Example 2, 3"', 5"'-Di-O-methyltiacumicin B]
activity relative to tiacumicin B (Streptococcus agalactiae): substantially less active than the starting material tiacumicin B | activity relative to tiacumicin B (Enterococcus faecium): substantially less active than the starting material tiacumicin B
